# The supplement of paper PMC12494721
# This is a selection; strong and weak results do not stand in their true shares.
# Legend:
# Settings in all cases: incubation time: 27 h, anaerobic, 37 °C;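 for the amine columns active = adjusted P below 0.05 in both replicates with a change the same way and a mean fold change under 0.8 or over 1.25; inactive = the rest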
# [1] = system: Clostridium sporogenes DSM 1664; assay: growth (OD595) fold change vs plate DMSO controls (fold change (ratio)); higher = more growth
# Summary of the method: (§1)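 After 27 h at 37 °C under anaerobic conditions, 96-well cultures in mGAM were shaken and read at 595 nm. The readings were blank-subtracted, corrected for compound background using 20 µM compound solutions in water, and converted to OD with a calibration factor of 5. Growth is defined as the fold change over the median of DMSO controls on each plate. Fold changes above 1.5 were set to NA, and each value is the mean of 2 biological replicates.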
# Escherichia coli IAI1 [2] = assay: as above
# Summary of the method: as §1
# [3] = system: Klebsiella aerogenes DSM 30053; assay: as above
# Summary of the method: as §1
# [4] = system: Ruminococcus gnavus DSM 108212; assay: as above
# Summary of the method: as §1
# [5] = system: Klebsiella aerogenes DSM 30053; assay: fold change of Histamine concentration vs plate DMSO controls (fold change (ratio)); higher = more amine produced, active = hit call of the paper (significant change in both replicates, either direction)
# Summary of the method: (§2)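 Amine values are fold changes relative to DMSO-only wells on the same plate. They derive from 27 h, 37 °C anaerobic mGAM cultures of four gut bacterial strains in 80 µL wells, dosed at 20 µM final, or 50 µM final for sweeteners. Extraction of the whole culture, LC–triple-quadrupole MS in dynamic MRM mode, external calibration curves and within-batch drift correction were used, with 2 biological replicates averaged.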
# Escherichia coli IAI1 [6] = assay: fold change of Putrescine concentration vs plate DMSO controls (fold change (ratio)); higher = more amine produced, active = hit call of the paper (significant change in both replicates, either direction)
# Summary of the method: as §2
# [7] = system: Klebsiella aerogenes DSM 30053; assay: as above
# Summary of the method: as §2
# [8] = system: Clostridium sporogenes DSM 1664; assay: fold change of Tryptamine concentration vs plate DMSO controls (fold change (ratio)); higher = more amine produced, active = hit call of the paper (significant change in both replicates, either direction)
# Summary of the method: as §2
# [9] = system: Ruminococcus gnavus DSM 108212; assay: as above
# Summary of the method: as §2
# Escherichia coli IAI1 [10] = assay: fold change of Cadaverine concentration vs plate DMSO controls (fold change (ratio)); higher = more amine produced, active = hit call of the paper (significant change in both replicates, either direction)
# Summary of the method: as §2
# [11] = system: Klebsiella aerogenes DSM 30053; assay: as above
# Summary of the method: as §2
# [12] = system: Ruminococcus gnavus DSM 108212; assay: fold change of 2-Phenylethylamine concentration vs plate DMSO controls (fold change (ratio)); higher = more amine produced, active = hit call of the paper (significant change in both replicates, either direction)
# Summary of the method: as §2
structure (smiles),measurement,setting,value
CCCCOP(=O)(OCCCC)OCCCC [Tributyl PO4] (20 µM),growth,[1],0.846
same,growth,Escherichia coli IAI1 [2],1
same,growth,[3],1.01
same,growth,[4],0.995
same,fold change of Histamine concentration,[5],inactive: 0.976
same,fold change of Putrescine concentration,Escherichia coli IAI1 [6],inactive: 0.934
same,fold change of Putrescine concentration,[7],inactive: 0.988
same,fold change of Tryptamine concentration,[8],inactive: 1.08
same,fold change of Tryptamine concentration,[9],inactive: 1.01
same,fold change of Cadaverine concentration,Escherichia coli IAI1 [10],inactive: 1.07
same,fold change of Cadaverine concentration,[11],inactive: 1.02
same,fold change of 2-Phenylethylamine concentration,[12],inactive: 1.08
